Tested on: FplA
Assay: Lipid-binding assay, phosphoinositides spotted onto PVDF
Settings: freshly prepared PI library spotted 0 to 200 pmol on PVDF; Fig. 9

## phosphoinositide 4,5-bisphosphate
  Binding of FplA to lipid: preferentially bind

## phosphoinositide 3,4,5-trisphosphate
  Binding of FplA to lipid: even stronger affinity

## phosphoinositide 3,5-bisphosphate
  Binding of FplA to lipid: even stronger affinity

— PMC5724010 (The Journal of Biological Chemistry, 2017)
